Data: patent publication US9403763B2, “CD4-mimetic inhibitors of HIV-1 entry and methods of use thereof” (priority 2011, dated 2016)

Key:
HIV-1YU2 virus = assay: Single-round infection of Cf2Th-CD4/CCR5 cells by luciferase-expressing HIV-1YU2 virus; type: cell-based; details: background statement, virus not named
[1] = target: gp120 from the YU2 strain (Human immunodeficiency virus type 1 group M subtype B, UniProt P35961)

CN1C(C)(C)CC(NC(=O)C(=O)Nc2ccc(Cl)c(F)c2)CC1(C)C
IC50 (HIV-1YU2 virus): 89.9 µM
binding affinity compared to NBD-556 (1) [1]: ten-fold enhancement in binding affinity
change in heat capacity [1]: −738±36 cal/(K×mol)
enthalpy change ΔH [1]: -19.7 kcal/mol
entropy change ΔS [1]: −37 cal/(K×mol)
